Among the data in PubChem BioAssay AID1259311 (ICCB-Longwood Screening Facility, Harvard Medical School, 2017) are inhibition values, retold here.

Only a part is listed here, and it is no random draw. Calls of active or inactive are those of the source. No stated cut-off is given here; in the data, active means inhibition above about 85%; inactive means the rest.

This experiment in a line: growth inhibition of S. aureus RN4220, primary screen, OD600 (AID 1259311).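 Further: plate controls were untreated cells for no effect and reference antibiotic for full effect.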 Conditions: OD600, 16 h, active compounds read high.
`COc1cc(C(=O)NCC2(N3CCOCC3)CCCCC2)ccc1OCC(C)C`: the inhibition is inactive: 2.7%.

`O=[N+]([O-])c1ccc(-c2cc([N+](=O)[O-])c(O)c([N+](=O)[O-])c2)cc1`: the inhibition was inactive: 21.1%.

Take `CCCC(C)(O)C1CC23C=CC1(OC)C1Oc4c(O)ccc5c4[C@@]12CCN(C)[C@@H]3C5` (stereo partly specified): the inhibition was inactive: 1.49%.

For the compound `O=[N+]([O-])c1cc([N+](=O)[O-])c(Nc2cccnc2)c([N+](=O)[O-])c1`, the inhibition is active: 98.5%.

For `CCC(CO)(C(=O)OC1CN2CCC1CC2)c1ccccc1` (stereo unspecified), the inhibition is inactive: -2.73%.

Turning to `COc1ccc2nc(NP(=O)(c3ccccc3)c3ccccc3)sc2c1`, the inhibition is inactive: 5.19%.

With `COc1cc(I)ccc1[As](=O)(O)O`, the inhibition was inactive: 1.53%.

In the case of `O=P1(N(CCCl)CCCl)Nc2ccccc2N1`, the inhibition was inactive: 3.92%.

With `O=C(OC1CN2CCC1CC2)C12CC3CC(CC(C3)C1)C2` (stereo unspecified), the inhibition is inactive: 0.161%.

As for `CCN(CC)CCCOC(=O)C(O)(c1ccccc1)c1ccccc1`, the inhibition was inactive: 3.28%.

As to `Cc1cc(=O)[nH]c(N[N+](=O)[O-])n1`, the inhibition is inactive: -0.927%.

On to `Cc1c2c(nc3ccccc13)SC(C(Cl)Cl)C2` (stereo unspecified), for which the inhibition is inactive: 2.04%.

Regarding `CP(=O)(Nc1ccccn1)Oc1ccc(Cl)cc1` (stereo unspecified), the inhibition was inactive: 3.17%.

As for `CCC(C)N(CC(C)C)C(=S)SC(NC(C)=O)C(Cl)(Cl)Cl` (stereo unspecified), the inhibition is inactive: -5.4%.

Consider `CCOC(=O)c1ccc(NC(=O)C(C)(CCl)SC)cc1` (stereo unspecified), for which the inhibition was inactive: 0.924%.

With `CCOC(=O)c1ccc(NP(C)(=O)Oc2ccc(OC)cc2)cc1` (stereo unspecified), the inhibition was inactive: 5.48%.

Consider `O=[N+]([O-])c1cc([N+](=O)[O-])c(O)c([N+](=O)[O-])c1.c1ccc(Oc2ccncc2)cc1`, for which the inhibition is inactive: 3.79%.

On to `O=C(OC1CN2CCC1CC2)c1cccc([N+](=O)[O-])c1` (stereo unspecified), for which the inhibition was inactive: 4.67%.

Take `CCOP(C)(=S)SCC(=O)NC(C)C(=O)O` (stereo unspecified): the inhibition is inactive: -1.09%.

As for `CCc1ccc(OP(C)(=O)N2CCN(c3ccc([N+](=O)[O-])cc3)CC2)cc1` (stereo unspecified), the inhibition is inactive: 2.51%.

`O=C(COc1ccccc1)OC1CN2CCC1CC2` (stereo unspecified): the inhibition is inactive: 2.57%.

`CP(=O)(NC(=O)Nc1ccccc1)Oc1ccccc1` (stereo unspecified): the inhibition was inactive: 1.21%.

For `O=C(Nc1ccncc1[N+](=O)[O-])c1ccc([N+](=O)[O-])cc1[N+](=O)[O-]`, the inhibition was inactive: 8.37%.

For the compound `Cc1cc(C)cc(OP(C)(=O)Nc2ccc(SC(F)(F)F)cc2)c1` (stereo unspecified), the inhibition is inactive: 4.15%.

`CC1OP(=O)(Oc2ccccc2)C(O)C(O)C1N=[N+]=[N-]` (stereo unspecified): the inhibition is inactive: 4.14%.

For the compound `Cc1cccc(C)c1OP(C)(=O)Nc1ccc(SC(F)(F)F)cc1` (stereo unspecified), the inhibition was inactive: -0.0333%.

In the case of `CP(=O)(Nc1ccc(SC(F)(F)F)cc1)Oc1ccc(Cl)cc1` (stereo unspecified), the inhibition is inactive: -1.15%.

As for `COP1(=S)c2c(C)nn(CCC#N)c2N=C(c2ccc(F)cc2)N1C` (stereo unspecified), the inhibition is inactive: 1.08%.

In the case of `CP(=O)(Oc1ccccc1)OC(c1ccccc1)C(F)(F)F` (stereo unspecified), the inhibition is inactive: 6.96%.

With `CP(=O)(Nc1ccccc1Br)Oc1ccccc1` (stereo unspecified), the inhibition is inactive: -2.45%.

As for `O=[N+]([O-])c1ccc(Nc2ccc(Oc3ccc([N+](=O)[O-])cc3[N+](=O)[O-])cc2)c([N+](=O)[O-])c1`, the inhibition is inactive: 7.1%.

On to `O=P(Nc1ccccn1)(c1cccc2ccccc12)c1cccc2ccccc12`, for which the inhibition was inactive: 1.04%.

Regarding `Cc1cc(SC(NC=O)C(Cl)(Cl)Cl)ncn1` (stereo unspecified), the inhibition was inactive: -6.2%.

`COc1ccccc1OP(C)(=O)Nc1ccccc1` (stereo unspecified): the inhibition is inactive: 6.87%.

`CCOC(=O)Nc1cccc([As](=O)(O)O)c1`: the inhibition was inactive: 8.23%.

Take `CP(=S)(Nn1cnnc1)Oc1ccccc1` (stereo unspecified): the inhibition was inactive: 4.3%.

As to `CCCCOc1ccc(C(=O)NCC2(N3CCCCC3)CCCCC2)cc1OC`, the inhibition was inactive: -1.03%.

In the case of `COc1ccc(NC(=NP(=O)(N2CCOCC2)N2CCOCC2)N2CCOCC2)cc1`, the inhibition is inactive: 6.88%.

`Cc1cc(SC(NC(=O)c2ccccc2)C(Cl)(Cl)Cl)nc(C(C)C)n1` (stereo unspecified): the inhibition is inactive: -2.6%.

`CC1CCNP(=O)(N(CCCl)CCCl)O1` (stereo unspecified): the inhibition is inactive: 5.09%.

Consider `CCOC(=O)Nc1ccc([As](=O)(O)O)c(O)c1`, for which the inhibition was inactive: 2.73%.
